System: SARS-CoV-2 5′-region SL1
Assay type: binding
Details: 5:1 DMA to RNA

Structure (SMILES) | NMR signal perturbation of SL1 (in words) | share of total observed correlation peaks with severe line broadening, SL1 (A- and C-selectively labeled SL1) [%]
CN(C)c1nc(N)c(C(=O)NC(=N)N)nc1-c1ccccc1 [DMA-132] | induced the migration of several correlation peaks to new spectral positions | –
CN(C)c1nc(N)c(C(=O)NC(=N)N)nc1C#Cc1ccccc1 [DMA-135] | – | ~50
CN(C)c1nc(N)c(C(=O)NC(=N)N)nc1-c1ccc(-c2ccccc2)cc1 [DMA-155] | induced the migration of several correlation peaks to new spectral positions | –
